The exact form of at least one protein or probe is not confirmed. At least one verdict rests on a figure or table, not on a statement of the authors. Tags and fusion partners may be left off the protein sequences shown.
Tests used:
CepR = system: T1, CepR; assay: EMSA; conditions: no oridonin; EMSA: 30 min at room temperature, manufacturer's (Thermo Fisher) binding reaction, 5% polyacrylamide gel; salt and pH not given; recombinant protein; residues 1-239; label: biotin 3' end; probe letters rebuilt from the primers and the genome
T1 sequence (looked up): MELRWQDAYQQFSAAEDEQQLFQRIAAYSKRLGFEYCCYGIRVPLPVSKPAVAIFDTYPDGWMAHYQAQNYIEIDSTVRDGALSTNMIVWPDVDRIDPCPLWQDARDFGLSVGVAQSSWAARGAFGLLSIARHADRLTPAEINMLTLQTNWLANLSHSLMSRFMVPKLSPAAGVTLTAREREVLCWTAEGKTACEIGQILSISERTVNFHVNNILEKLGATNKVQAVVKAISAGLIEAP

RqpR = system: T2, RqpR; assay: EMSA; conditions: no oridonin; EMSA: 30 min at room temperature, manufacturer's (Thermo Fisher) binding reaction, 5% polyacrylamide gel; salt and pH not given; recombinant protein; residues 1-218; protein details: His tag, TEV cleavage of fusion described; probe letters rebuilt from the primers and the genome
T2 sequence (looked up): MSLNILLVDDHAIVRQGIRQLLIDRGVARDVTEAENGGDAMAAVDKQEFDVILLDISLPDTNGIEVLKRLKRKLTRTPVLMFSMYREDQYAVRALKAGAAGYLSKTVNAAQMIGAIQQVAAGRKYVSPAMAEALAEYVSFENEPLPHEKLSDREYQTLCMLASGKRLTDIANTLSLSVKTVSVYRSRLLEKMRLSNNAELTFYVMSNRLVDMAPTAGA

CGAACATGAATAGGGCCTCACCGGCGCCGCACCCGTGAAGCATATCGATGGGGCCAGCCGCCGCCTATCGGACTGGACTGATTCTGCGCCAACGCGCGTGTCGGGAGACGACGCGGAATGAATGCGACCGGTTGACAGCCGTGGCCACCCTGTGATTTGATGCCGGTCATGCACGCCGCCCAGTTCCTCTTCTCGCTACGACTACTAGCCCGCTTCTCCGGGCTGGGTCTGCGGCTGCGCGCTTTCCATCTGCTTCTTTCCTGAAGCGCCAGATTTTCCCCGCATCACCGACCTGGCCCCGGTTGTCGACCGGCGCCTGAGTTCGTCTTTCTTCCGTCACCACTCCGCTCCGTCCCGGTCGCCCAACCGCCAAGGCCGTCGTTTGCCGTACCGCTTTGCCGTTGTGCCGCTTTTTTGCCGTTCTTACCGCTGCGCATGGACCCGGCTCATCACGCCGATGGCCGCCGCGCCGCGCTTCACCGACAAACAGACCGAGGACCGACATC (double strand) [bclACB promoter probe]
binding result (CepR): binds

GTCGAAGCTCTCCGCGCGTTCGTTGCCGGGCGTCAGCGCCGCGCGCCGGAGCGGGAGTCGTACCGCATGACGCGCGCATGACAAGCCTCTCGCGCGCACTCGCACGCGGGGCCGTCGTGCGGCCCAGTGTGGGCGACGGGCCGGCGAGCGTCAAGCCGCGCCAGCGGGAAGGAGACCTCATGCCGATCGGTGACGCTTGCGCAACCGGTGACCGCGTGATGGCGTTCGCGTGGCTGCGTGTGATCCTGTTCGGCACGCTGCCAACGGTGCTGCATCCCGAACGGCCGCATCCGAAGCCGATCGACGCCGAGCGGCCATGCGCGCCGCGCGCGCCCTCTCGCTCACGACGAGACGAATCGCCCCCACGCCGGTCGACCCGATCCGCAACAGCGGATCGGCGTCCTGACGTCGCTTTCAGCGCGTAAGCGACCGGCGACGCCGGCGCGCCCGCTCCACTCGAGTCCCCTCCCCCACCGACCTCAACCCGTCGTCCCGCCCTCCGTCGTCACCCGCCCTTTCGCCCGACCGCAAGCCGCACGGGTTTTCCGTTCGTGCGTTGTTCCCCGCAATTCGACTTTTGTGCGCGCGCAACAATGGCGATGCCTCGCGCCAGGCGCCCCGGCGGGCAACCCGATACCCGCATGGCGCATGGCGCGACGGTCTTTAAAACCACATCTCACGAGGACATACC (double strand) [rpfFBC promoter probe]
binding result (RqpR): binds

— PMC9430380, “Oridonin Attenuates Burkholderia cenocepacia Virulence by Suppressing Quorum-Sensing Signaling” (Microbiology Spectrum, 2022)
